PubChem BioAssay AID624099 – ICCB-Longwood – 2012
This is a random part of about 21,000 reagents. Of all reagents, 497 (2.4%) are marked active. 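Higher z means weaker E2 silencing; only reporter increases were scored, and knock-downs that hurt cell survival may mask genuine repressor factors.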 Reagents against one gene are numbered here.

Aim: 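Host factors E2 relies on to silence an HPV18 LCR reporter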 (primary screen)
System: human C33A cervical carcinoma cells (HPV-negative) stably expressing BPV1 E2 and an HPV18 LCR luciferase reporter
Reagents: siRNA pool against human genes, 40 nM
Timing: 72 h
Read-out: 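HPV18 LCR reporter light per well, converted to plate-wise z-scores that exclude control wells, and averaged over triplicate plates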
Reading the numbers: mean z-score and z-score: higher = stronger reporter signal, weaker E2 silencing
Hit rule: 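Hit if mean z-score reaches 2 and two or more of three replicate z-scores also reach 2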

Gene,reagent no.,mean z-score,"z-score, replicate A","z-score, replicate B","z-score, replicate C",outcome
SIX3 (SIX homeobox 3),1,-1.09,-1.25,-1.09,-0.92,inactive
EZR (ezrin),1,0.28,0.07,0.37,0.38,inactive
HFM1 (helicase for meiosis 1),1,0.14,-0.02,0.19,0.26,inactive
HFM1 (helicase for meiosis 1),2,-0.23,-0.39,-0.23,-0.06,inactive
H2BC8 (H2B clustered histone 8),1,0.39,-0.1,0.63,0.63,inactive
MOK (MOK protein kinase),1,0.08,0.11,-0.18,0.31,inactive
"ERCC8 (ERCC excision repair 8, CSA ubiquitin ligase complex subunit)",1,0.26,0.15,0.51,0.12,inactive
H4C13 (H4 clustered histone 13),1,1.22,1.42,1.03,1.21,inactive
PCDHB13 (protocadherin beta 13),1,-0.27,-0.49,-0.48,0.16,inactive
TRANK1 (tetratricopeptide repeat and ankyrin repeat containing 1),1,-0.63,-0.79,-0.5,-0.61,inactive
SNAI1 (snail family transcriptional repressor 1),1,-0.89,-1.45,-0.61,-0.61,inactive

Part of the list above, limited to “z-score, replicate B”:
SIX3 (SIX homeobox 3): -1.09
EZR (ezrin): 0.37
HFM1 (helicase for meiosis 1) #1: 0.19

The results go on:
Gene,reagent no.,mean z-score,"z-score, replicate A","z-score, replicate B","z-score, replicate C",outcome
UPK3A (uroplakin 3A),1,-0.02,-0.05,0.01,-0.01,inactive
DMRTC2 (DMRT like family C2),1,-0.34,-0.61,-0.65,0.24,inactive
PLIN1 (perilipin 1),1,-0.32,-0.18,-0.22,-0.56,inactive
C1QL4 (complement C1q like 4),1,-0.47,-0.24,-0.32,-0.83,inactive
SLC22A6,1,-0.01,0.03,0.08,-0.13,inactive
GLIPR2 (GLI pathogenesis related 2),1,-0.28,-0.49,-0.53,0.18,inactive
HAPLN3 (hyaluronan and proteoglycan link protein 3),1,-0.79,-1.2,-0.67,-0.51,inactive
CENPM (centromere protein M),1,0.82,0.87,0.72,0.88,inactive
CD226 (CD226 molecule),1,2.87,2.97,2.67,2.98,active
OS9 (OS9 endoplasmic reticulum lectin),1,0.04,-0.1,0.24,-0.03,inactive
PRADC1 (protease associated domain containing 1),1,-0.18,-0.23,-0.04,-0.26,inactive
TMED9 (transmembrane p24 trafficking protein 9),1,1.79,1.88,1.84,1.66,inactive
